Results taken from US20160143995A1, “Method of Treating Intracellular Infection” (priority 2013, published 2016).

Test system: Legionella pneumophila
Format: in vivo
Conditions: C57BL/6 mice, single dose 10 mg/Kg intraperitoneally six hours after infection; lungs two days after infection; P<0.05

## CC[C@H](NC(=O)[C@H](C)NC)C(=O)N1C[C@@H](O)C[C@H]1Cc1c(-c2[nH]c3cc(F)ccc3c2C[C@@H]2C[C@H](O)CN2C(=O)[C@H](CC)NC(=O)[C@H](C)NC)[nH]c2cc(F)ccc12 [Birinapant, birinapant]
  clearance of Legionella pneumophila compared to control treatment: promotes the clearance of Legionella pnemophila and disease resolution
